According to the CheMixHub viscosity set:

CCn1cc[n+](C)c1.O=S(=O)(F)[N-]S(=O)(=O)F
viscosity [mPa·s]
Conditions | 298 K | 303 K | 308 K | 313 K | 318 K | 323 K
100 kPa | 19.2 ± 0.4 | – | 14.4 ± 0.3 | – | 11.1 ± 0.2 | –
101.3 kPa | 19.2 ± 0.6 | 16.7 ± 0.5 | 14.6 ± 0.4 | 12.9 ± 0.4 | 11.4 ± 0.3 | 10.2 ± 0.3

± gives the uncertainty stated by the source.
